# HIV-1 1203 Vif substitutions under APOBEC3G selection

Vif of 1203 (a subtype B primary isolate), residues 12-115; positions count from the first residue of the whole protein:
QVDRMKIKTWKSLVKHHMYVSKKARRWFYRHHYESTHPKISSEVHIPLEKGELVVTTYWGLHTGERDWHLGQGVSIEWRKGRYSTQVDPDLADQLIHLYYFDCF

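A pool of vif mutants was passaged twice, 72 h each, on SupT1 cells that express APOBEC3G. Each of three replicates was sequenced after round two and set against the merged round-one pool. Changes do not touch integrase, since the pol overlap was removed.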

Scale: log2 enrichment, wild type = 0; negative values mean that the variant was depleted.
Substitutions are written as wild-type residue, site number, new residue.
The median of three replicates is given.
Input reads are the counts in the merged round-one pool, before selection.
The authors note that some positive scores may be noise, and some enriched variants failed when tested singly.

mutation | input reads | median log2 enrichment
K19T | 1944 | -2.08
P58V | 27 | 3.80
K34R | 1398 | 0.51
L106I | 195 | -2.50
L24D | 1810 | -1.50
K17I | 43 | -3.48
I18K | 394 | -2.26
K26N | 528 | -0.77
D14V | 23 | -0.99
C114W | 473 | -3.07
W38G | 256 | -1.51
L59Y | 2689 | -2.32
I87C | 228 | -2.18
G84V | 161 | -2.21
R36D | 1185 | -0.08
D78P | 1480 | -2.35
Q105G | 106 | -2.45
T20D | 254 | -2.11
L72D | 115 | -3.70
T20V | 725 | -1.91
D101G | 151 | -3.28
D14H | 296 | -1.73
W89V | 315 | -2.53
H42W | 425 | -1.20
S23N | 51 | -0.01
Y110F | 144 | -3.27
T96K | 95 | -3.40
H27Y | 287 | -2.35
P49C | 41 | 0.50
H27D | 121 | -0.38
S95G | 18 | 2.30
R41C | 184 | 1.37
K34A | 281 | -2.33
R15I | 19 | 0.56
K22N | 63 | -1.21
H43W | 195 | -2.33
P58G | 440 | 0.43
G84S | 72 | -3.03
W38S | 182 | -1.84
H56T | 88 | -1.43
T67F | 79 | -2.03
K34P | 19 | -2.28
Q12K | 22 | 1.39
F39R | 343 | -1.38
S95R | 84 | 0.63
Y94L | 243 | -2.28
Y44D | 22 | -1.56
T74Q | 377 | -0.09
W38L | 19 | 3.66
T74F | 187 | 2.33
K34G | 140 | -1.48
V85Y | 423 | -1.91
G71T | 262 | -2.58
I107N | 57 | -4.28
K19Q | 260 | -2.54
R37V | 24 | -0.31
E54Q | 414 | -2.47
I87V | 44 | -3.88
G71K | 143 | 1.29
S23W | 19 | 1.38
M29P | 342 | 0.03
L64P | 158 | -2.56
G62S | 2243 | -2.19
V25H | 23 | -1.40
D104F | 408 | -2.38
R77T | 25 | 0.12
Y44L | 278 | -2.02
R77E | 176 | -3.05
K26S | 289 | -1.40
P100T | 16 | 4.25
E76I | 764 | -1.55
K33R | 55 | 2.81
R36H | 436 | -2.07
L24T | 562 | -2.13
L59K | 180 | -2.41
C114H | 52 | -4.15
V31H | 317 | -2.49
S86C | 49 | -1.42
F112K | 175 | -2.44
W89E | 1217 | -2.07
P100S | 111 | -1.68
R90T | 207 | -2.39
H108T | 339 | -3.66
W79Q | 20 | -0.06
H28L | 102 | -3.11
K33Q | 1208 | -0.43
Y111N | 210 | -1.35
W70V | 344 | -2.77
K33A | 18 | 0.58
D101V | 139 | -3.76
S52G | 17 | -0.22
Q83K | 1388 | -0.35
Y44P | 42 | 3.90
D99G | 8301 | -2.68
A103W | 435 | -3.28
C114T | 482 | -2.30
F115V | 55 | -0.64
H48F | 102 | -2.76
D99P | 21 | 2.02
V85L | 193 | -1.80
L59I | 595 | -2.90
W79I | 204 | -1.46
K91A | 777 | -2.16
L24V | 195 | -1.94

The last 4 entries again:

| mutation | input reads | median log2 enrichment |
|---|---|---|
| L59I | 595 | -2.90 |
| W79I | 204 | -1.46 |
| K91A | 777 | -2.16 |
| L24V | 195 | -1.94 |

Some changes are missing from the data or left out.
The scan is noisy: the rank correlation of replicates is about 0.4 to 0.65, and variants with under about 50 input reads tend to read too high.

Reference: Langley et al. 2025, preprint, doi:10.1101/2025.10.20.683452.